Measured values from several laboratories, pooled; numbers as filed in NIAID ChemDB.

All rows: tests on isolated targets; organism: Human cytomegalovirus; protein: Polymerase; read-out: IC50

Neighbouring rows are from separate reports. ICn is the concentration giving n% inhibition.

compound,result
CN(C)n1cc(C(=O)NCc2ccc(Cl)cc2)c(=O)c2cc(C#CCO)ccc21,2.3 µM
Cn1cc(C(=O)NCc2ccc(Cl)cc2)c(=O)c2cc(CN3CCOCC3)ccc21,0.58 µM
CN(Cc1cc2c3c(c1)c(=O)c(C(=O)NCc1ccc(Cl)cc1)cn3CC(=O)N2C)C[C@@H](O)c1cccnc1,0.113 µM
O=C(NCc1ccc(Cl)cc1)c1n[nH]c2ccccc2c1=O,90 µM
O=C(Nc1nnc(NCC(c2ccccc2)c2ccccc2)s1)c1ccc([N+](=O)[O-])o1,>25 µM
CN(Cc1cc2c3c(c1)c(=O)c(C(=O)NCc1ccc(Cl)cc1)cn3CC(=O)N2C)C[C@@H](O)c1cnccn1,0.14 µM
CN1CCN(n2cc(C(=O)NCc3ccc(Cl)cc3)c(=O)c3cc(CN4CCOCC4)ccc32)CC1,0.73 µM
O=C(NCc1ccc(Cl)cc1)c1c[nH]c2c(F)cc(-c3cccs3)cc2c1=O,0.26 µM
CC1(C)C2CC[C@@H](CNc3nnc(NC(=O)/C=C/c4ccccc4Cl)s3)C1C2,>25 µM
O=C(NCc1ccc(Cl)cc1)c1c[nH]c2c(F)cc(CCCCO)cc2c1=O,0.16 µM
CCS(=O)(=O)CCCn1cc(C(=O)NCc2ccc(Cl)cc2)c(=O)c2cc(CN3CCOCC3)ccc21,0.9 µM
O=C(NCc1ccc(Cl)cc1)c1c[nH]c2ccc(CCCO)cc2c1=O,0.35 µM
Cc1ccc(CNC(=O)c2cn(N3CCOCC3)c3ccc(CN4CCOCC4)cc3c2=O)cc1,15.2 µM
CC(C)c1cc(C(C)C)c(C(=O)Nc2nnc(NCCC(c3ccccc3)c3ccccc3)s2)c(C(C)C)c1,>25 µM
O=C(NCc1ccc(Cl)cc1)c1n[nH]c2ccc(CO)cc2c1=O,51 µM
CN(Cc1cc2c3c(c1)c(=O)c(C(=O)NCc1ccc(Cl)cc1)cn3CC(=O)N2C)CC(O)c1ccc(O)cc1,0.081 µM
O=C(Nc1nnc(NC2CCCCCC2)s1)c1cc(F)cc(F)c1,>25 µM
O=C(NCc1ccc(Cl)cc1)c1cn(CCCSc2ccccc2)c2ccc(CN3CCOCC3)cc2c1=O,3 µM
O=C(NCc1ccc(Cl)cc1)c1c[nH]c2ccc(C#CCO)cc2c1=O,0.95 µM
O=C(NCc1ccc(Cl)cc1)c1cn(N2CCOCC2)c2ccc(CC3CCOCC3)cc2c1=O,0.2 µM

The last 2 rows once more:

compound,result
O=C(NCc1ccc(Cl)cc1)c1c[nH]c2ccc(C#CCO)cc2c1=O,0.95 µM
O=C(NCc1ccc(Cl)cc1)c1cn(N2CCOCC2)c2ccc(CC3CCOCC3)cc2c1=O,0.2 µM